Values quoted from earlier work in patent US8067231B2 (priority 2005, dated 2011).

By UniProt entry, the sequences of proteins in these tests, tags left out. Where a name states a change or a piece, a line headed by the entry shows the natural chain unless it says otherwise.
UniProt P0DPI0: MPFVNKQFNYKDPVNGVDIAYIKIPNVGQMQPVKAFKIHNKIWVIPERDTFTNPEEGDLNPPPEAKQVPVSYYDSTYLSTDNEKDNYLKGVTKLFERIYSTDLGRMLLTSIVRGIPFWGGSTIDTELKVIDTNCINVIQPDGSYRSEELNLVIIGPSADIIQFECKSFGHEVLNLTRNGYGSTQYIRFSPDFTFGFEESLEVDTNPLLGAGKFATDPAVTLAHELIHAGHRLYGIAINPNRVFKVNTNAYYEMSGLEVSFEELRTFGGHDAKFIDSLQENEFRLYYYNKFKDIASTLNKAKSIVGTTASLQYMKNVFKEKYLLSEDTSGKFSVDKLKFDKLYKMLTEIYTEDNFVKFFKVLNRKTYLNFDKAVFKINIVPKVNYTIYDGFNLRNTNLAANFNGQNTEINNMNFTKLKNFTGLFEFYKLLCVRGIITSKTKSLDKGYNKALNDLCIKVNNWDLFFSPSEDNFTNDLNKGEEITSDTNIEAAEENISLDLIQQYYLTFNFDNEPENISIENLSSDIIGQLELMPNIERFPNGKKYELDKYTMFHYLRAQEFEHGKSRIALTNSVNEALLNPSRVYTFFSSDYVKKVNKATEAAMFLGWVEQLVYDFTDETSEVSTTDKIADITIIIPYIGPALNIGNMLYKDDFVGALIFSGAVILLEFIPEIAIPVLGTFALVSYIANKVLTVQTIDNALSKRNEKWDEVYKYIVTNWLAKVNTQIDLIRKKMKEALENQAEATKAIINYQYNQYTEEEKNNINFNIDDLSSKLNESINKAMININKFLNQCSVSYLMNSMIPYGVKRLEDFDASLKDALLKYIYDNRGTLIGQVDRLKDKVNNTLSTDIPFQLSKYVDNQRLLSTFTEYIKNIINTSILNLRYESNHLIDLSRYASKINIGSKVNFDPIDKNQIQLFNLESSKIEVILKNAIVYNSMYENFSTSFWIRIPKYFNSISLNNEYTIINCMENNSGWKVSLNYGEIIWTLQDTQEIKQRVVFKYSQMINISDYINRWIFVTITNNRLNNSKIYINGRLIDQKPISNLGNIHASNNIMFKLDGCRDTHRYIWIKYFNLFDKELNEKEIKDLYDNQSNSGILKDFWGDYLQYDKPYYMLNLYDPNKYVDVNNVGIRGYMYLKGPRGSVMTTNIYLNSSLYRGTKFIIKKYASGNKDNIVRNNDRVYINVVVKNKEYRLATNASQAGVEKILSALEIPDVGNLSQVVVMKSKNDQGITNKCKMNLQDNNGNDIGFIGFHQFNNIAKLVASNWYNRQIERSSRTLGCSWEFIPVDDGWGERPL

Target: BoNT/A (Clostridium botulinum, UniProt P0DPI0)
Settings: Initial hydrolysis rates relative to peptide [1-17] (residues 187 to 203 of human SNAP-25); peptide concentrations 1.0 mM; cited from earlier work

In the case of SNKTRIDEANQRATK, the “Relative Rate” value is listed as 0.03.

In the case of SNKTRIDEAAQRATKML, the “Relative Rate” value is given as 0.06.
